# Measured values: PMC9302814
# Biological target: MERS-CoV S2 (40070-V08) (MERS-CoV) (UniProt K9N5Q8)
# Assay: SPR
substance,measurement,value
S2P6,Kd,8.5 nM
same,koff,0.0052 s⁻¹
